{"source": "PubChem BioAssay AID1259414 (Drosophila RNAi Screening Center, 2018)", "aim": "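Genome-wide screen for host control of endosymbiont load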 (primary screen)", "system": "Drosophila JW18 cells infected with Wolbachia", "reagent": "long dsRNA against Drosophila genes, 0.25 µg dsRNA per well of a 384-well plate", "timing": "5 days", "challenge": "cells persistently infected with Wolbachia before knock-down; no added drug", "read-out": "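Automated imaging of bacterial rRNA staining divided by host cell count, reported as plate-normalised robust z-score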", "scale": "Wolbachia per cell robust z: higher = more Wolbachia per host cell than the plate typical", "hit rule": "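Active if absolute robust z reaches 1.5 in two or more of three replicates, leaving out multi- or no-target dsRNAs, genes unexpressed in JW18 and A1 wells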", "note": "In all, the deposit lists about 24,000 reagents; below is a random part of those with a known target gene and a result. Of all reagents, about 1,210 (5%) are marked active. 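Inactive calls also include excluded dsRNAs with several or no targets, genes unexpressed in JW18, and well A1, regardless of score.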"}
{"gene": "MetRS-m", "DRSC id": "DRSC16443", "Wolbachia per cell robust z, rep 1": -7.61, "Wolbachia per cell robust z, rep 2": -3.86, "Wolbachia per cell robust z, rep 3": 0.483, "activity call": "active"}
{"gene": "MetRS-m", "DRSC id": "DRSC16515", "Wolbachia per cell robust z, rep 1": 0.587, "Wolbachia per cell robust z, rep 2": -1.48, "Wolbachia per cell robust z, rep 3": -2.81, "activity call": "inactive"}
{"gene": "Nmdar1", "DRSC id": "DRSC12071", "Wolbachia per cell robust z, rep 1": -7.2, "Wolbachia per cell robust z, rep 2": -10.4, "Wolbachia per cell robust z, rep 3": -5.43, "activity call": "inactive"}
{"gene": "Nmdar1", "DRSC id": "DRSC12356", "Wolbachia per cell robust z, rep 1": -0.0848, "Wolbachia per cell robust z, rep 2": -0.268, "Wolbachia per cell robust z, rep 3": -6.72, "activity call": "inactive"}
{"gene": "Nmdar1", "DRSC id": "DRSC24657", "Wolbachia per cell robust z, rep 1": -0.338, "Wolbachia per cell robust z, rep 2": -4.2, "Wolbachia per cell robust z, rep 3": -0.239, "activity call": "inactive"}
{"gene": "fal", "DRSC id": "DRSC11087", "Wolbachia per cell robust z, rep 1": -1.24, "Wolbachia per cell robust z, rep 2": -7.39, "Wolbachia per cell robust z, rep 3": 0.756, "activity call": "inactive"}
{"gene": "brn", "DRSC id": "DRSC18746", "Wolbachia per cell robust z, rep 1": 0.342, "Wolbachia per cell robust z, rep 2": 0.53, "Wolbachia per cell robust z, rep 3": 0.126, "activity call": "inactive"}
{"gene": "CG3008", "DRSC id": "DRSC00560", "Wolbachia per cell robust z, rep 1": -0.464, "Wolbachia per cell robust z, rep 2": 0.91, "Wolbachia per cell robust z, rep 3": 0.442, "activity call": "inactive"}
{"gene": "MED4", "DRSC id": "DRSC11014", "Wolbachia per cell robust z, rep 1": -0.209, "Wolbachia per cell robust z, rep 2": -1.44, "Wolbachia per cell robust z, rep 3": -0.637, "activity call": "inactive"}
{"gene": "MED4", "DRSC id": "DRSC25135", "Wolbachia per cell robust z, rep 1": 1.33, "Wolbachia per cell robust z, rep 2": 0.709, "Wolbachia per cell robust z, rep 3": -0.332, "activity call": "inactive"}
{"gene": "Nipped-A", "DRSC id": "DRSC04883", "Wolbachia per cell robust z, rep 1": 1.7, "Wolbachia per cell robust z, rep 2": 1.39, "Wolbachia per cell robust z, rep 3": -0.0747, "activity call": "inactive"}
{"gene": "Nipped-A", "DRSC id": "DRSC04884", "Wolbachia per cell robust z, rep 1": -3.03, "Wolbachia per cell robust z, rep 2": 2.05, "Wolbachia per cell robust z, rep 3": -6.28, "activity call": "active"}
{"gene": "Nipped-A", "DRSC id": "DRSC07738", "Wolbachia per cell robust z, rep 1": -1.44, "Wolbachia per cell robust z, rep 2": -1.03, "Wolbachia per cell robust z, rep 3": -0.0264, "activity call": "inactive"}
{"gene": "Nipped-A", "DRSC id": "DRSC22386", "Wolbachia per cell robust z, rep 1": -0.0893, "Wolbachia per cell robust z, rep 2": 0.503, "Wolbachia per cell robust z, rep 3": 0.435, "activity call": "inactive"}
{"gene": "so", "DRSC id": "DRSC23096", "Wolbachia per cell robust z, rep 1": 0.246, "Wolbachia per cell robust z, rep 2": -1.27, "Wolbachia per cell robust z, rep 3": -0.222, "activity call": "inactive"}
{"gene": "Cyp12a5", "DRSC id": "DRSC16621", "Wolbachia per cell robust z, rep 1": 0.0444, "Wolbachia per cell robust z, rep 2": -0.407, "Wolbachia per cell robust z, rep 3": -1.31, "activity call": "inactive"}
{"gene": "Cyp12a5", "DRSC id": "DRSC24826", "Wolbachia per cell robust z, rep 1": 1.48, "Wolbachia per cell robust z, rep 2": -7.45, "Wolbachia per cell robust z, rep 3": -0.345, "activity call": "inactive"}

2 entries from above, reformatted:
{"gene":"Nmdar1","DRSC id":"DRSC12356","Wolbachia per cell robust z, rep 1":-0.0848,"Wolbachia per cell robust z, rep 2":-0.268,"Wolbachia per cell robust z, rep 3":-6.72,"activity call":"inactive"}
{"gene":"Nmdar1","DRSC id":"DRSC24657","Wolbachia per cell robust z, rep 1":-0.338,"Wolbachia per cell robust z, rep 2":-4.2,"Wolbachia per cell robust z, rep 3":-0.239,"activity call":"inactive"}
